Pooled drug test results. Numbers come from NIAID ChemDB, via PubChem.

Common to all: whole-cell or culture tests; organism: Epstein-Barr virus; endpoint: EC50

Lines come from different laboratories, so protocols vary. An empty or dashed field is not shown. ECn is the concentration giving n% inhibition of infection, replication or growth.

structure | cells | read by | result
COC(=O)[C@]1(O)C[C@@H]2O[C@@]1(C)n1c3ccccc3c3c4c(c5c6ccccc6n2c5c31)C(=O)NC4 | Akata |  | 0.02 µM
Cc1cccc2c1OP(=O)(OC[C@H]1O[C@@H](n3cc(/C=C/Br)c(=O)[nH]c3=O)C[C@@H]1OC(=O)[C@H](N)Cc1ccccc1)OC2 |  | hybridisation | 36.1 µg/mL
Nc1nc(NC2CC2)c2ncn(C=C3CC3CO)c2n1 | H-1 | hybridisation | 4 µM
O=P(O)(O)COCCn1cnc2c(N3CCCCC3)ncnc21 | P3HR-1 | hybridisation | 19 µg/mL
Nc1nc(F)nc2c1ncn2/C=C1/CC1CO | H-1 | hybridisation | >20 µM
COC(=O)[C@H](C)NP(=O)(OC[C@H]1C/C1=C/n1cnc2c(=O)[nH]c(N)nc21)Oc1ccccc1 | H-1 | hybridisation | >10 µM
CC1OP(=O)(OC[C@H]2O[C@@H](n3cc(/C=C/Br)c(=O)[nH]c3=O)C[C@@H]2O)Oc2cccc(Cl)c21 |  | hybridisation | 33.3 µg/mL
CN(C)c1ncnc2c1ncn2CCOCP(=O)(O)O | P3HR-1 | hybridisation | 1.1 µg/mL
Cc1cccc2c1OP(=O)(OC[C@H]1O[C@@H](n3cc(/C=C/Br)c(=O)[nH]c3=O)C[C@@H]1OC(=O)[C@@H](C)N)OC2 |  | hybridisation | 17.7 µg/mL
N#CCCn1c2ccccc2c2c3c(c4c5ccccc5[nH]c4c21)C(=O)NC3 | Akata |  | <0.004 µM
Nc1ccn(C[C@@H](CO)OCP(=O)(O)O)c(=O)n1 | P3HR-1 | hybridisation | 0.4 µg/mL
COC(=O)[C@H](C)NP(=O)(OC[C@H]1C/C1=C/n1cnc2c(OC)nc(N)nc21)Oc1ccccc1 | H-1 | hybridisation | 0.4 µM
C=CC(C)(C)C1=Cc2cc3c(cc2OC1=C)OC(C(C)(C)OC(C)=O)C3 | Akata-Bx1 | PCR | 2.38 µM
Cc1cn([C@H]2CC[C@@H](CO)O2)c(=O)n(NO)c1=O | P3HR-1 | hybridisation | 4.1 µg/mL
Nc1[nH]c(=O)nc2c1ncn2/C=C1/C[C@@H]1CO | H-1 | hybridisation | >20 µM
O=P(O)(O)COCCn1cnc2c(N3CCCC3)ncnc21 | P3HR-1 | hybridisation | 8 µg/mL
Cc1cccc2c1OP(=O)(OC[C@H]1O[C@@H](n3cc(/C=C/Br)c(=O)[nH]c3=O)C[C@@H]1OC(=O)[C@@H](N)CC(C)C)OC2 |  | hybridisation | 17.1 µg/mL
CCN(C)CCNc1ncnc2c1ncn2C[C@H](C)OCP(=O)(O)O | P3HR-1 | hybridisation | 5 µg/mL
COC(=O)C(C)NOP(OC[C@H]1C/C1=C/n1cnc2c(N)[nH]c(=O)nc21)Oc1ccccc1 | H-1 | hybridisation | >20 µM

Again, the opening 2 rows:

structure,cells,read by,result
COC(=O)[C@]1(O)C[C@@H]2O[C@@]1(C)n1c3ccccc3c3c4c(c5c6ccccc6n2c5c31)C(=O)NC4,Akata,,0.02 µM
Cc1cccc2c1OP(=O)(OC[C@H]1O[C@@H](n3cc(/C=C/Br)c(=O)[nH]c3=O)C[C@@H]1OC(=O)[C@H](N)Cc1ccccc1)OC2,,hybridisation,36.1 µg/mL